The series has as its target Nsp13 WT (SARS-CoV-2, UniProt P0DTD1 5325-5925). Kind of series: fluorescence polarization; 100 nM probe; no ATP stated. The following applies: protein: recombinant; label: 5' fluorescein on strand 1.

Usually Kd stands for a measure of binding affinity in units of concentration.

B1: duplex-FL (dsDNA)
DNA 1: CCTCGTAGGTACGCATGGATCCTCT
DNA 2: GCTTGCATGCCTGCAGGTGCACTCTAGAGGATCCATGCGTACCTACGAGG
Take B1: the Kd is roughly 79 nM.

These data come from publication PMC11267572, “A Repurposed Drug Interferes with Nucleic Acid to Inhibit the Dual Activities of Coronavirus Nsp13”.
